1 substance from PMC8814042 can be followed below.

Chains of the proteins cited; added tags and fusions are not shown. Lines headed by an entry give the natural chain unless they say otherwise; changes in a name come on top. A line that says so, or that is headed by a name, gives the form on record, which may keep a tag or linker. Residues count along the entry.
UniProt P02745, 23-245: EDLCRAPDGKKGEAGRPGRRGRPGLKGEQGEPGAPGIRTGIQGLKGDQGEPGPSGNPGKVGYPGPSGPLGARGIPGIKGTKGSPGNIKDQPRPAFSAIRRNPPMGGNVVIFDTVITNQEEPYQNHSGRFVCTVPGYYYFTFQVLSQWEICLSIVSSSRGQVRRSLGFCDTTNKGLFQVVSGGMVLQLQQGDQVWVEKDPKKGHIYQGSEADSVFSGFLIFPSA
human C1q (biotinylated), UniProt P02746, 28-253: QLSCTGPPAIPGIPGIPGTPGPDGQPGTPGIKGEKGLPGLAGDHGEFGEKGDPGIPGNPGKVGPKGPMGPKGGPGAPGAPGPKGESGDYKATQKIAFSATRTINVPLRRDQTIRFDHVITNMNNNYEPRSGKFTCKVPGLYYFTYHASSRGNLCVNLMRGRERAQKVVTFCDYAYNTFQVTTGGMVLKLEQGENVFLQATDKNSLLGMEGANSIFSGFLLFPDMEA
human C1q (biotinylated), UniProt P02747, 29-245: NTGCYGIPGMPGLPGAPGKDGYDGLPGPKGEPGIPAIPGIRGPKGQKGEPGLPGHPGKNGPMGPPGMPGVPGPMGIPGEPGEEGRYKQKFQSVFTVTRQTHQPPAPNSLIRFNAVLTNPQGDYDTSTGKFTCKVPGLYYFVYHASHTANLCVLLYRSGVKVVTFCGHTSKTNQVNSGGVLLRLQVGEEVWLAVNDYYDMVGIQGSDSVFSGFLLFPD
10E8v4 EFTAE (G236A/S267E/H268F/S324T/I332E Fc variant) (human), heavy, as listed by the source, chain 1 of 2: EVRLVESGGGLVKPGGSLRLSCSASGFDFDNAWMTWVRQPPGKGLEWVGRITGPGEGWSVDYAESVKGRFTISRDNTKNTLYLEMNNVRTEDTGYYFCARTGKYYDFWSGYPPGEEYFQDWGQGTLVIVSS
10E8v4 EFTAE (G236A/S267E/H268F/S324T/I332E Fc variant) (human), light, as listed by the source, chain 2 of 2: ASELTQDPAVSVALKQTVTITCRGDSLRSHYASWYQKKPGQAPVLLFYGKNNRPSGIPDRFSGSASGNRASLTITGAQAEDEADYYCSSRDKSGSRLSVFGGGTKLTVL

For this assay, the target named is 10E8v4 EFTAE (G236A/S267E/H268F/S324T/I332E Fc variant) (human). The assay can be described thus: bead-based flow cytometry (Luminex MAGPIX); antibody held on NeutrAvidin MagPlex beads coated with biotinylated MPER peptide (overnight, 4 °C); 1.0 µg/ml biotinylated human C1q, 1 h RT; streptavidin-PE; 1X PBS, 0.1% BSA, 0.05% Tween-20.

Turning to “human C1q (biotinylated) (from UniProt P02745 23-245; P02746 28-253; P02747 29-245) (complex)”, the fold increase of C1q binding against unmodified 10E8v4 amounted to 2 fold.
